System: wild-type Zaire EBOV Mayinga 1976 strain (EBOV May)
Details: selectivity index with EBOV May EC50

O=C(Nc1ccccc1)c1ccc(-c2cccc(OC3CCNCC3)c2)s1 [compound 53, N-Phenyl-5-(3-(piperidin-4-yloxy)phenyl)thiophene-2-carboxamide]
SI (CC50/EC50): 113

Source: publication PMC11440591 (Journal of Medicinal Chemistry, 2024)
